Values from PubChem BioAssay AID504761 (Drosophila RNAi Screening Center, 2011).

Screen: 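Insect host genes that dengue virus relies on to spread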 (primary screen)
Cell system: D.Mel-2 cells from Drosophila
Knock-down reagent: long dsRNA against Drosophila genes
Challenge: infection with dengue virus type 2; dose and infection time not stated
Read-out: 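Per well on two replicate plates, imaging gave the percent of cells positive for viral envelope protein, ranked by infection, and a nuclear count of cells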
Direction: infection score: higher = more virus-infected cells; cell count: higher = more cells in the well
Rule for the call: 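Low infection ranks in the two replicates (chance level up to 0.065) followed by a retest with a 1.5-fold or larger significant decrease, p below 0.05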
Calls: active = confirmed: knock-down lowers infection; inactive = not picked or not confirmed
The screen tested about 22,000 reagents; this is an unselected part of those that have a named target and a result. Over the whole deposit, 116 (0.52%) are marked active. 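Calls depend on retest data that are not deposited; infection was ranked per plate without normalising between plates; the unit of the infection score is not given.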 Raw values vary from plate to plate and are shown uncorrected. A number with no mark means an inactive call. Reagents against one gene are numbered here. Not given: the amount of reagent, the time to read-out.

RYBP (GeneID 37601) #1
- infection score, replicate 1: 13.2
- infection score, replicate 2: 23.6
- cell count, replicate 1: 6130
- cell count, replicate 2: 6258

RYBP (GeneID 37601) #2
- infection score, replicate 1: 18.6
- infection score, replicate 2: 12.6
- cell count, replicate 1: 6679
- cell count, replicate 2: 6819

CG8042 (GeneID 38886) #1
- infection score, replicate 1: 11.9
- infection score, replicate 2: 8.51
- cell count, replicate 1: 5945
- cell count, replicate 2: 6076

CG8042 (GeneID 38886) #2
- infection score, replicate 1: 11.1
- infection score, replicate 2: 10.8
- cell count, replicate 1: 6654
- cell count, replicate 2: 5465

CG3408 (GeneID 39107)
- infection score, replicate 1: 3.09
- infection score, replicate 2: 1.88
- cell count, replicate 1: 6110
- cell count, replicate 2: 6218

gskt (GeneID 318552) #1
- infection score, replicate 1: 0.4
- infection score, replicate 2: 0.12
- cell count, replicate 1: 6577
- cell count, replicate 2: 6681

gskt (GeneID 318552) #2
- infection score, replicate 1: 1.6
- infection score, replicate 2: 3.34
- cell count, replicate 1: 6137
- cell count, replicate 2: 6104

rngo (GeneID 32616) #1
- infection score, replicate 1: 2.52
- infection score, replicate 2: 5
- cell count, replicate 1: 6239
- cell count, replicate 2: 6157

rngo (GeneID 32616) #2
- infection score, replicate 1: 4.83
- infection score, replicate 2: 8
- cell count, replicate 1: 6321
- cell count, replicate 2: 6453

TwdlG (GeneID 40535) #1
- infection score, replicate 1: 2.75
- infection score, replicate 2: 6.1
- cell count, replicate 1: 6210
- cell count, replicate 2: 6609

TwdlG (GeneID 40535) #2
- infection score, replicate 1: 10.6
- infection score, replicate 2: 7.8
- cell count, replicate 1: 6408
- cell count, replicate 2: 6567

elgi (GeneID 39735) #1
- infection score, replicate 1: 24
- infection score, replicate 2: 7.24
- cell count, replicate 1: 5323
- cell count, replicate 2: 6338

elgi (GeneID 39735) #2
- infection score, replicate 2: 8.56
- cell count, replicate 1: 399
- cell count, replicate 2: 5584

Not a retest: 2 of the entries above.
rngo (GeneID 32616) #2
- infection score, replicate 1: 4.83
- infection score, replicate 2: 8
- cell count, replicate 1: 6321
- cell count, replicate 2: 6453

TwdlG (GeneID 40535) #1
- infection score, replicate 1: 2.75
- infection score, replicate 2: 6.1
- cell count, replicate 1: 6210
- cell count, replicate 2: 6609
